Laboratory results reported in US20150073021A1 (priority 2013, published 2015).

Sequences of proteins named here, by UniProt entry; tags and fusion partners are left off. Residues count along the entry.
UniProt P15917, 34-809 limits assumed: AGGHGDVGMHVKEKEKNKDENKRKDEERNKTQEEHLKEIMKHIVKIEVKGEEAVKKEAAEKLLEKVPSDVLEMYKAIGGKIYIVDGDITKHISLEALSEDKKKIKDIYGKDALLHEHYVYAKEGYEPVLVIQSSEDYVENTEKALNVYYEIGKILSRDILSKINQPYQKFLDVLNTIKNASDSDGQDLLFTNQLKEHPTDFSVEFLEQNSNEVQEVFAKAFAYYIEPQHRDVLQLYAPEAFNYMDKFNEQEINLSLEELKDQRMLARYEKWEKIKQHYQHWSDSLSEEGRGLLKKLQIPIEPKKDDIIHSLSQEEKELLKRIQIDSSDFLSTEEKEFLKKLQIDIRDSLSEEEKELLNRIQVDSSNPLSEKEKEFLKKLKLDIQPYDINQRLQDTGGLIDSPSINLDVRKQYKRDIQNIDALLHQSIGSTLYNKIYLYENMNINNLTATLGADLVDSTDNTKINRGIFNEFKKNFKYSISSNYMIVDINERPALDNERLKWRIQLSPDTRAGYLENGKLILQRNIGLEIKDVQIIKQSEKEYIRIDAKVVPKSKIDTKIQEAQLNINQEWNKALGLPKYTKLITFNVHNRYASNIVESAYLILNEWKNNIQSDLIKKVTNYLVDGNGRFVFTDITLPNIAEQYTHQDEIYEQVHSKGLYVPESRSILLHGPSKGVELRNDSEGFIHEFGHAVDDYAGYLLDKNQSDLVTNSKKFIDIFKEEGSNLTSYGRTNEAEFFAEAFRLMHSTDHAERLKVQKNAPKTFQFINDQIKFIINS

Target: Recombinant lethal factor (native sequence) (Bacillus anthracis, UniProt P15917)
Experiment: Lethal factor peptidolytic activity assay (FRET MAPKKide cleavage)

O=C(/C=C/c1ccc(O)cc1)C(C(=O)/C=C/c1ccc(O)cc1)C(=O)Nc1ccccc1 [CMC2.24] was tested, and the IC50 (100 nM LF and 3 μM substrate, depends on substrate concentration) was 33.1 µM, the “inhibition of lethal factor peptidolytic activity (in words)” value (100 nM lethal factor, 3 μM substrate, 20 μM inhibitors) was “strongest inhibitor of lethal factor among the CMCs tested” and the “inhibition of cleavage of substrate by lethal factor” value (20 μM inhibitor, 3 μM substrate, 100 nM lethal factor) was 26-28%.
